Results of unrelated studies side by side (data: NIAID ChemDB).

Shared fields: target-level tests; organism: HIV-1; protein: Reverse transcriptase; method: nucleotide incorporation / radiometric; measure: fold resistance

Fold resistance has wild type as its base. Lines come from different laboratories, so protocols vary. Two numbers with a dash give a range or band. An empty or dashed field is not shown.

{"SMILES": "CCc1ccc(-n2c(Br)nnc2SCC(=O)Nc2ccc(C(=O)N3CCCCC3CO)cc2Cl)c2ccccc12", "changes": "RT-Y188L", "value": ">2"}
{"SMILES": "C=CCO/N=C/c1cc(NC(=S)c2ccoc2C)ccc1Cl", "changes": "RT-P236L", "value": "1"}
{"SMILES": "CCN1c2ncc(CCOc3ccc(CC(C)C(=O)O)c4ccccc34)cc2C(=O)N(C)c2ccc(Cl)nc21", "changes": "RT-V106A", "value": ">10"}
{"SMILES": "O=C(CSc1nnc(Br)n1-c1ccc(C2CC2)cc1Cl)Nc1ccc(C(=O)O)cc1Cl", "changes": "RT-Y188L", "value": ">2"}
{"SMILES": "Cc1ccnc2c1NC(=O)c1cc(CCOc3cccc4c3CNC(=O)N4)cnc1N2C1CC1", "strain": "IIIB", "changes": "RT-K103N Y181C", "value": ">2"}
{"SMILES": "COc1ccc2cccc(-n3c(Br)nnc3SCC(=O)Nc3ccc(C(=O)O)cc3Cl)c2c1", "changes": "RT-Y188L", "value": ">2"}
{"SMILES": "CCN1c2ncc(CCOc3ccc4c(c3)CN(C)C(=O)N4C)cc2C(=O)N(C)c2cccnc21", "strain": "IIIB", "changes": "RT-K103N Y181C", "value": ">2"}
{"SMILES": "Cc1cc(C)c2ccccc2c1-n1c(SCC(=O)Nc2ccc(S(N)(=O)=O)cc2Cl)nnc1C(F)F", "changes": "RT-Y188L", "value": ">2"}
{"SMILES": "Cc1occc1C(=S)Nc1ccc(Cl)c(C(=O)OCC2CC2)c1", "changes": "RT-V106A", "value": ">8.33"}
{"SMILES": "Cc1cc(C)cc(S(=O)(=O)c2c(C(=O)NCCO)[nH]c3ccc(Cl)cc23)c1", "changes": "RT-Y188L", "value": ">8000"}
{"SMILES": "CCN1C(=O)c2cc(CCOc3cccc4c3CNC(=O)N4)cnc2N(CC)c2ncccc21", "strain": "IIIB", "changes": "RT-K103N Y181C", "value": ">2"}
{"SMILES": "O=C(CSc1nnc(Br)n1-c1ccc(C2CC2)cc1Cl)Nc1ccc(C(=O)O)cc1Cl", "changes": "RT-Y188L", "value": ">2"}
{"SMILES": "CCN1c2ncc(CCOc3cccc4c3CNC4=O)cc2C(=O)N(C)c2cccnc21", "strain": "IIIB", "changes": "RT-K103N Y181C", "value": ">2"}
{"SMILES": "CCN1c2ncc(CCOc3ccc(CCC(=O)O)c4ccccc34)cc2C(=O)Nc2c(C)cc(Cl)nc21", "changes": "RT-V106A", "value": "1–10"}
{"SMILES": "Cc1cc(C(=O)O)ccc1NC(=O)CSc1nnc(C(F)F)n1-c1ccc(C)c2c1CCCC2", "changes": "RT-Y181C", "value": ">2"}
{"SMILES": "Cc1cc(C2CC2)c2ccccc2c1-n1c(Br)nnc1SCC(=O)Nc1ccc(C(=O)O)cc1Cl", "changes": "RT-Y188L", "value": ">2"}
{"SMILES": "N#Cc1cccc2c(-n3c(SCC(=O)Nc4ccc(S(N)(=O)=O)cc4Cl)nnc3C(F)F)cccc12", "changes": "RT-Y181C", "value": ">1"}
{"SMILES": "Cc1occc1C(=S)Nc1ccc(Cl)c(/C=N/OC(C)(C)C)c1", "changes": "RT-L100I", "value": ">3.85"}
{"SMILES": "CCN1c2ncc(CCOc3ccc4cc(C(=O)NC(C)(C)C(=O)O)ccc4c3)cc2C(=O)N(C)c2cccnc21", "changes": "RT-V106A", "value": "1–10"}
{"SMILES": "CCc1ccc(-n2c(Br)nnc2SCC(=O)Nc2ccc(S(N)(=O)=O)cc2Br)c2ccccc12", "changes": "RT-Y188L", "value": ">1"}
{"SMILES": "CCc1ccc(-n2c(SCC(=O)Nc3ccc(C(=O)O)cc3C)nnc2C(F)F)c2ccccc12", "changes": "RT-Y181C", "value": ">2"}
{"SMILES": "CCc1ccc(-n2c(Br)nnc2SCC(=O)Nc2ccc(C(=O)NCCC#N)cc2Cl)c2ccccc12", "changes": "RT-Y181C", "value": ">1"}
{"SMILES": "CCN1c2ncc(CCOc3ccc(C(=O)O)c4ccccc34)cc2C(=O)Nc2c(C)cc(F)nc21", "changes": "RT-V106A", "value": "1–10"}
{"SMILES": "CC(Sc1nnc(Br)n1-c1ccc(C2CC2)c2ccccc12)C(=O)Nc1ccc(S(N)(=O)=O)cc1Cl", "changes": "RT-Y188L", "value": ">2"}
{"SMILES": "O=C(CSc1nnc(Br)n1-c1ccc(C2CC2)c2ccccc12)Nc1ccc(C(=O)N[C@@H](Cc2ccc(O)cc2)C(=O)O)cc1Cl", "changes": "RT-Y188L", "value": ">1"}
{"SMILES": "CCN1c2ncc(CCOc3ccc4cc(C(=O)NN)ccc4c3)cc2C(=O)N(C)c2cccnc21", "changes": "RT-V106A", "value": "1"}
{"SMILES": "NS(=O)(=O)c1ccc(NC(=O)CSc2nnc(Br)n2-c2ccc(C3CC3)cc2OC(F)(F)F)c(Cl)c1", "changes": "RT-Y188L", "value": ">2"}

Repeating the first 4 entries:

SMILES,strain,changes,value
CCc1ccc(-n2c(Br)nnc2SCC(=O)Nc2ccc(C(=O)N3CCCCC3CO)cc2Cl)c2ccccc12,-,RT-Y188L,>2
C=CCO/N=C/c1cc(NC(=S)c2ccoc2C)ccc1Cl,-,RT-P236L,1
CCN1c2ncc(CCOc3ccc(CC(C)C(=O)O)c4ccccc34)cc2C(=O)N(C)c2ccc(Cl)nc21,-,RT-V106A,>10
O=C(CSc1nnc(Br)n1-c1ccc(C2CC2)cc1Cl)Nc1ccc(C(=O)O)cc1Cl,-,RT-Y188L,>2